The results in this text go back to PMC5764413, “Mutational analysis of Rift Valley fever phlebovirus nucleocapsid protein indicates novel conserved, functional amino acids” (2017).

Experiment in all cases: cross-linking
The subject of series [1] is RVFV MP12 N protein D34A, N-terminal 6His-tag (p14-N), Rift Valley fever phlebovirus (RVFV), strain MP12, P21700 1-245.
The subject of series [2] is RVFV MP12 N protein F11A, N-terminal 6His-tag (p14-N), Rift Valley fever phlebovirus (RVFV), strain MP12, P21700 1-245.
Series [3] concerns RVFV MP12 N protein F149A, N-terminal 6His-tag (p14-N), Rift Valley fever phlebovirus (RVFV), strain MP12, P21700 1-245.
The subject of series [4] is RVFV MP12 N protein N181A, N-terminal 6His-tag (p14-N), Rift Valley fever phlebovirus (RVFV), strain MP12, P21700 1-245.
For series [5], the system named is RVFV MP12 N protein Y30A, N-terminal 6His-tag (p14-N), Rift Valley fever phlebovirus (RVFV), strain MP12, P21700 1-245.

“RVFV MP12 N protein D34A, N-terminal 6His-tag (p14-N)”: the result in series [1] is reported as “binds”.
“RVFV MP12 N protein F11A, N-terminal 6His-tag (p14-N)”: in series [2], the result is on record as “binds”.
Consider “RVFV MP12 N protein F149A, N-terminal 6His-tag (p14-N)”, for which the result in series [3] is “binds”.
“RVFV MP12 N protein N181A, N-terminal 6His-tag (p14-N)”: the result in series [4] is “binds”.
“RVFV MP12 N protein Y30A, N-terminal 6His-tag (p14-N)”: in series [5], the result is reported as “binds”.
